# What was measured:
# [1] = tested on: BLV-specific T cell proliferation; test: Inoculation test on BLV-infected calf: T cell proliferation response to BLV antigen; format: in vivo, bovine; conditions: 1 mg/kg i.v.
# Experimental: Bovine PBMCs were suspended in PBS and reacted with CFSE at room temperature for 20 min. […] As a control, culture supernatant of 2% BLV-not-infected fetal lamp kidney cells (FLK) was used. After a 6-day culture, PBMCs were collected and reacted with anti-bovine CD4 mouse antibody, anti-bovine CD8 mouse antibody and anti-bovine IgM mouse antibody (Bio-Rad) at 4° C. for 20 min. For the labeling of antibodies. Zenon Mouse IgG1 Labeling Kits (Life Technologies) or Lightning-Link Kit (Innova Biosciences) was used. For analysis, FACS Verse (BD Biosciences) was used. For every washing operation and dilution of antibody, PBS supplemented with 1% bovine serum albumin (Sigma-Aldrich) was used.
# [2] = tested on: PBMCs of BLV-infected cattle; test: Biological activity test: IFN-γ production of PBMCs of BLV-infected cattle to BLV antigen; conditions: 10 μg/ml antibody, 2% FLK-BLV supernatant, 6 days, n=10
molecule,measurement,setting,value
"ch4G12: rat-bovine chimeric anti-bovine PD-L1 antibody, 4G12 variable regions, mutated bovine IgG1 and Igλ constant regions; SEQ ID NOS: 105 and 106 (protein, chimeric L chain; chimeric H chain) light: MESQTHVLISLLLSVSGTYGDIAITQSPSSVAVSVGETVTLSCKSSQSLLYSENQKDYLGWYQQKPGQTPKPLIYWATNRHTGVPDRFTGSGSGTDFTLIISSVQAEDLADYYCGQYLVYPFTFGPGTKLELKQPKSPPSVTLFPPSTEELNGNKATLVCLISDFYPGSVTVVWKADGSTITRNVETTRASKQSNSKYAASSYLSLTSSDWKSKGSYSCEVTHEGSTVTKTVKPSECS heavy: MGWSQIILFLVAAATCVHSQVQLQQSGAELVKPGSSVKISCKASGYTFTSNFMHWVKQQPGNGLEWIGWIYPEYGNTKYNQKFDGKATLTADKSSSTAYMQLSSLTSEDSAVYFCASEEAVISLVYWGQGTLVTVSSASTTAPKVYPLSSCCGDKSSSTVTLGCLVSSYMPEPVTVTWNSGALKSGVHTFPAVLQSSGLYSLSSMVTVPGSTSGQTFTCNVAHPASSTKVDKAVDPTCKPSPCDCCPPPPVAGPSVFIFPPKPKDTLTISGTPEVTCVVVDVGHDDPEVKFSWFVDDVEVNTATTKPREEQFNSTYRVVSALRIQHQDWTGGKEFKCKVHNEGLPSSIVRTISRTKGPAREPQVYVLAPPQEELSKSTVSLTCMVTSFYPDYIAVEWQRNGQPESEDKYGTTPPQLDADSSYFLYSKLRVDRNSWQEGDTYTCVVMHEALHNHYTQKSTSKSAGK",BLV-specific cell proliferation response of CD4-positive T cells vs before administration,[1],increased
same,IFN-γ response of bovine PBMCs to BLV antigen,[2],increases
